Anti-infective test results gathered from many reports (values: NIAID ChemDB through PubChem).

All rows: whole-cell or culture tests; agent: Candida albicans; endpoint: MIC

Rows are shuffled and stem from different studies.

compound	strain	method	result
N/C(=N/N=C1CCCC1)SCc1ccc(Cl)cc1Cl			>200 µg/mL
CNc1ccc(C(=O)CC(O)CCC(C)C2OC(=O)CC(O)CC(=O)CC(O)CC(O)CC(O)CC(O)CC3(O)CC(O)C(C(=O)N4CCN(C)CC4)C(CC(O[C@@H]4O[C@H](C)[C@@H](O)[C@H](NC(=O)CN5CCN(C)CC5)[C@@H]4O)/C=C/C=C/C=C/C=C\C=C/C=C/C=C/C2C)O3)cc1	200		0.03 µg/mL
COc1ccc2[nH]c(=O)c(C(F)(F)F)nc2c1Cl			>200 µM
C[C@H]1[C@H](O)[C@@H](C)/C=C/C=C/C=C/C=C/C=C/C=C/C=C/[C@H](O[C@@H]2O[C@H](C)[C@@H](O)[C@H](N)[C@@H]2O)C[C@@H]2O[C@](O)(C[C@@H](O)C[C@@H](O)CC[C@H](O)[C@@H](O)C[C@@H](O)CC(=O)O[C@H]1C)C[C@H](O)[C@H]2C(=O)O	A25941 (amphotericin B-resistant)		2 µg/mL
CO[C@H]1C[C@@H]2CC[C@@H](C)[C@@](O)(O2)C(=O)C(=O)N2CCCC[C@H]2C(=O)O[C@H]([C@H](C)C[C@@H]2CC[C@@H](O)[C@H](OC)C2)CC(=O)[C@H](C)/C=C(\C)[C@@H](O)[C@@H](OC)C(=O)[C@H](C)C[C@H](C)/C=C/C=C/C=C/1C	ATCC11651		<0.0625 µg/mL
CO[C@H]1C[C@@H]2CC[C@@H](C)[C@@](O)(O2)C(=O)C(=O)N2CCCC[C@H]2C(=O)O[C@H]([C@H](C)C[C@@H]2CC[C@H](c3nn[nH]n3)[C@H](OC)C2)CC(=O)[C@H](C)/C=C(\C)[C@@H](O)[C@@H](OC)C(=O)[C@H](C)C[C@H](C)CCCC/C=C/1C	38247		>100 µg/mL
Cc1ccc(C(=O)Nc2ccc3oc(-c4ccccc4)nc3c2)c(C)c1	RSKK 628		25 µg/mL
O=C(NN1C(=O)/C(=C\c2ccc(Cl)cc2)SC1c1ccccc1)c1ccc(-c2ccccc2)cc1	MTCC 8184		1.56 µg/mL
COc1ccc(C(=O)Nc2ccc3oc(-c4ccccc4)nc3c2)c(OC)c1	RSKK 628		25 µg/mL
CC(C)c1nc2c(Cl)c(Cl)ccc2[nH]c1=O			>200 µM
O[C@](Cn1cncn1)(Cn1cnc(/C=C/c2ccc(OCC(F)(F)C(F)F)cc2)n1)c1ccc(F)cc1F	Isolate 04-33		2 µg/mL
Oc1ccc(O)c(C=Nc2cc(Cl)ccc2O)c1	ATCC 10231	broth dilution	78 µg/mL
O=C(Cc1ccc(Br)cc1)Nc1ccc2oc(-c3ccccc3)nc2c1	RSKK 628		25 µg/mL
CNc1ccc(C(=O)CC(O)CCC(C)C2OC(=O)CC(O)CC(=O)CC(O)CC(O)CC(O)CC(O)CC3(O)CC(O)C(C(=O)N4CCN(CCO)CC4)C(CC(O[C@@H]4O[C@H](C)[C@@H](O)[C@H](NC(=O)CN(C)C)[C@@H]4O)/C=C/C=C/C=C/C=C\C=C/C=C/C=C/C2C)O3)cc1	200		0.015 µg/mL
CC[C@@H]([C@H](C)O)n1ncn(-c2ccc(N3CCN(c4ccc(OC[C@@H]5CO[C@@](Cn6cncn6)(c6ccc(F)cc6F)C5)cc4)CC3)cc2)c1=O	Isolate CA-11		>4 µg/mL
OC(CCn1ccnc1)c1cccc(C(O)c2ccc(Br)cc2)c1	RTCC 1003	broth dilution	>64 µg/mL
CC1CCC/C(=N\Nc2nc(-c3ccccc3)cs2)CC1			0.39 µg/mL
Oc1ccc(C=Nc2cc(Cl)ccc2O)c(O)c1	ATCC 10231	broth dilution	312 µg/mL
COc1ccc2ncc(=O)[nH]c2c1			>200 µM
COc1ccccc1C(=O)Nc1ccc2oc(-c3ccccc3)nc2c1	RSKK 628		25 µg/mL
Cc1c(S(=O)(=O)c2ccccc2)[n+](=O)c2cc(Cl)ccc2n1[O-]	Clinical isolate 6		31.25 µg/mL
CCCCOc1ccc(CC(=O)Nc2ccc3oc(-c4ccccc4)nc3c2)cc1	RSKK 628		25 µg/mL
O=C(NN1C(=O)/C(=C\c2cccc(Br)c2)SC1c1ccccc1)c1ccc(-c2ccccc2)cc1	MTCC 8184		3.12 µg/mL
c1ccc(-c2csc(NN=C3CCCCCC3)n2)cc1			0.78 µg/mL
CNc1ccc(C(=O)CC(O)CCC(C)C2OC(=O)CC(O)CC(=O)CC(O)CC(O)CC(O)CC(O)CC3(O)CC(O)C(C(=O)O)C(CC(O[C@@H]4O[C@H](C)[C@@H](O)[C@H](N)[C@@H]4O)/C=C/C=C/C=C/C=C\C=C/C=C/C=C/C2C)O3)cc1	73		0.12 µg/mL
CCC(C)n1ncn(-c2ccc(N3CCN(c4ccc(OC[C@H]5CO[C@](Cn6cncn6)(c6ccc(Cl)cc6Cl)O5)cc4)CC3)cc2)c1=O	Isolate CA-2		>8 µg/mL
COc1ccc(/C=C2/SC(c3ccccc3)N(NC(=O)c3ccc(-c4ccccc4)cc3)C2=O)cc1	MTCC 8184		3.12 µg/mL
Oc1ccc(Br)cc1C=Nc1cc(Cl)ccc1O	ATCC 10231	broth dilution	19.5 µg/mL
O=C(Nc1ccc2oc(-c3ccccc3)nc2c1)c1ccc([N+](=O)[O-])cc1	RSKK 628		25 µg/mL
CO[C@H]1C[C@@H]2CC[C@@H](C)[C@@](O)(O2)C(=O)C(=O)N2CCCC[C@H]2C(=O)O[C@H]([C@H](C)C[C@@H]2CC[C@@H](C(=O)ON3CCCCC3)[C@H](OC)C2)CC(=O)[C@H](C)/C=C(\C)[C@@H](O)[C@@H](OC)C(=O)[C@H](C)C[C@H](C)CCCC/C=C/1C	10231		>100 µg/mL
COc1cc(O)c2c(c1)C(=O)c1c(cc3c(c1O)-c1c(cc(C)c(C(=O)NC(CO)C(=O)O)c1O)[C@H](OC1OC(C)C(O)C(OC4OCC(O)C(O)C4O)C1O)C3O)C2=O	83-2-14 (Juntendo)		12.5 µg/mL
O=C(Nc1ccc2oc(-c3ccccc3)nc2c1)c1ccccc1	RSKK 628		25 µg/mL
Cc1c(Sc2ccccc2)[n+](=O)c2cc(C(F)(F)F)ccc2n1[O-]	Clinical isolate 20		15.6 µg/mL
c1ccc(-c2csc(NN=C3CCCCCCC3)n2)cc1			3.12 µg/mL
CCSc1nnc(-c2cccc([N+](=O)[O-])c2)s1	ATCC 10231		>100 µg/mL
O=c1[nH]c2ccc(Cl)cc2nc1CBr			>200 µM
CC(C)(O)c1cn(-c2ccc(Cl)cc2)nn1	URM 4260	broth dilution	128 µg/mL
CSc1nnc(-c2cc([N+](=O)[O-])ccc2-c2ccco2)s1	ATCC 10231		>100 µg/mL
CO[C@@H]1C[C@H](C[C@@H](C)[C@@H]2CC(=O)[C@H](C)/C=C(\C)[C@@H](O)[C@@H](OC)C(=O)[C@H](C)C[C@H](C)/C=C/C=C/C=C(\C)[C@@H](N(OC)C(=O)N(C)C)C[C@@H]3CC[C@@H](C)[C@@](O)(O3)C(=O)C(=O)N3CCCC[C@H]3C(=O)O2)CC[C@H]1C(=O)ON(C)O	62376		50 µg/mL
Cc1c(O)cccc1C(=O)N[C@@H](CSc1ccccc1)[C@H](O)CN1C[C@H]2CCCC[C@H]2C[C@H]1C(=O)NC(C)(C)C	I18A		>64 µg/mL
N/C(=N/N=C1CCCCCCC1)SCc1cccc(Cl)c1			>200 µg/mL
COC1CC2CCC(C)C(O)(O2)C(=O)C(=O)N2CCCCC2C(=O)OC(C(C)CC2CCC(O)C(OC)C2)CC(=O)C(C)/C=C(\C)C(O)CC(=O)C(C)CC(C)/C=C/C=C/C=C/1C	ATCC11651		0.3 µg/mL
O=C(NN1C(=O)/C(=C\c2cccc(Br)c2)SC1c1cccc(Br)c1)c1ccc(-c2ccccc2)cc1	MTCC 8184		1.56 µg/mL
CCc1ccc(C(=O)Nc2ccc3oc(-c4ccc(CC)cc4)nc3c2)cc1	RSKK 628		50 µg/mL
CCS(=O)(=O)c1nnc(-c2cccc([N+](=O)[O-])c2)s1	ATCC 10231		6.25 µg/mL
CCc1ccc(-c2nc3cc(NC(=O)c4ccccc4)ccc3o2)cc1	RSKK 628		50 µg/mL
OC(CCn1ccnc1)c1ccc(-c2ccccc2)cc1	RTCC 1003	broth dilution	>64 µg/mL
CNc1ccc(C(=O)CC(O)CCC(C)C2OC(=O)CC(O)CC(=O)CC(O)CC(O)CC(O)CC(O)CC3(O)CC(O)C(C(=O)NCCN(C)C)C(CC(O[C@@H]4O[C@H](C)[C@@H](O)[C@H](NC(=O)CN(C)C)[C@@H]4O)/C=C/C=C/C=C/C=C\C=C/C=C/C=C/C2C)O3)cc1	73		0.015 µg/mL
Cc1c(S(=O)(=O)c2ccccc2)[n+](=O)c2ccccc2n1[O-]	Clinical isolate 5		31.25 µg/mL
O=C(CCn1ccnc1)c1ccc(Cl)cc1	RTCC1024	broth dilution	>64 µg/mL
c1ccc(-c2csc(NN=C3CCCCCCCC3)n2)cc1			>100 µg/mL
O=c1[nH]c2ccc(Cl)c(Cl)c2nc1C(F)(F)F			>200 µM
O=C(NN1C(=O)/C(=C\c2ccc(Cl)cc2)SC1c1cccc(Br)c1)c1ccc(-c2ccccc2)cc1	MTCC 8184		6.25 µg/mL
Oc1ccc(Cl)cc1C=Nc1cc(Cl)ccc1O	ATCC 10231	broth dilution	19.5 µg/mL
CO[C@@H]1C[C@H](C[C@@H](C)[C@@H]2CC(=O)[C@H](C)/C=C(\C)[C@@H](O)[C@@H](OC)C(=O)[C@H](C)C[C@H](C)/C=C/C=C/C=C(\C)[C@@H](N(O)C(=O)N(C)C)C[C@@H]3CC[C@@H](C)[C@@](O)(O3)C(=O)C(=O)N3CCCC[C@H]3C(=O)O2)CC[C@H]1C(=O)ON(C)O	62376		100 µg/mL
O=C(CCn1ccnc1)c1cccc(C(O)c2ccc(Cl)cc2)c1	RTCC1024	broth dilution	64 µg/mL
CCS(=O)c1nnc(Cc2cc([N+](=O)[O-])ccc2-c2ncc[nH]2)s1	ATCC 10231		25 µg/mL

The first 8 rows once more:

N/C(=N/N=C1CCCC1)SCc1ccc(Cl)cc1Cl ; result: >200 µg/mL
CNc1ccc(C(=O)CC(O)CCC(C)C2OC(=O)CC(O)CC(=O)CC(O)CC(O)CC(O)CC(O)CC3(O)CC(O)C(C(=O)N4CCN(C)CC4)C(CC(O[C@@H]4O[C@H](C)[C@@H](O)[C@H](NC(=O)CN5CCN(C)CC5)[C@@H]4O)/C=C/C=C/C=C/C=C\C=C/C=C/C=C/C2C)O3)cc1 ; strain: 200 ; result: 0.03 µg/mL
COc1ccc2[nH]c(=O)c(C(F)(F)F)nc2c1Cl ; result: >200 µM
C[C@H]1[C@H](O)[C@@H](C)/C=C/C=C/C=C/C=C/C=C/C=C/C=C/[C@H](O[C@@H]2O[C@H](C)[C@@H](O)[C@H](N)[C@@H]2O)C[C@@H]2O[C@](O)(C[C@@H](O)C[C@@H](O)CC[C@H](O)[C@@H](O)C[C@@H](O)CC(=O)O[C@H]1C)C[C@H](O)[C@H]2C(=O)O ; strain: A25941 (amphotericin B-resistant) ; result: 2 µg/mL
CO[C@H]1C[C@@H]2CC[C@@H](C)[C@@](O)(O2)C(=O)C(=O)N2CCCC[C@H]2C(=O)O[C@H]([C@H](C)C[C@@H]2CC[C@@H](O)[C@H](OC)C2)CC(=O)[C@H](C)/C=C(\C)[C@@H](O)[C@@H](OC)C(=O)[C@H](C)C[C@H](C)/C=C/C=C/C=C/1C ; strain: ATCC11651 ; result: <0.0625 µg/mL
CO[C@H]1C[C@@H]2CC[C@@H](C)[C@@](O)(O2)C(=O)C(=O)N2CCCC[C@H]2C(=O)O[C@H]([C@H](C)C[C@@H]2CC[C@H](c3nn[nH]n3)[C@H](OC)C2)CC(=O)[C@H](C)/C=C(\C)[C@@H](O)[C@@H](OC)C(=O)[C@H](C)C[C@H](C)CCCC/C=C/1C ; strain: 38247 ; result: >100 µg/mL
Cc1ccc(C(=O)Nc2ccc3oc(-c4ccccc4)nc3c2)c(C)c1 ; strain: RSKK 628 ; result: 25 µg/mL
O=C(NN1C(=O)/C(=C\c2ccc(Cl)cc2)SC1c1ccccc1)c1ccc(-c2ccccc2)cc1 ; strain: MTCC 8184 ; result: 1.56 µg/mL

An empty or dashed field is not shown.